Measurements: patent publication US7732458B2 (priority 2004, dated 2010)

Each compound was assayed on HIV-1 III B (assay: Inhibition of HIV-induced MT4 cell pathological effects (CPE)). Settings: selective index TC50/IC50.
Type: cell-based
Experimental: HIV-1 III B comes from the USA; MT4 cell line comes from Japan.
To determine viral toxicity, HIV are diluted 10 fold in 8 serial [Chinese version is unclear, and this is an educated guess] and MT4 cell pathological effects are then observed in the culture solution of RPMI-1640. Calculated TCID50 is 10-6. The normal cell control group and virus control group are also performed. The samples with five concentrations per group that are diluted by 2 times and 100 μl AZT are added in cell or virus cultures. All concentrations of samples are performed in three repeated wells. The experiments are maintained at 37° C., 5 percent CO2 for 72 hours. Then the cell pathological effects (CPE) are observed under an inverted microscope. IC50 and selective index SI (TC50/IC50) are calculated in Table 7.

SMILES | SI
Cc1cn([C@H]2C[C@H](N=[N+]=[N-])[C@@H](CO)O2)c(=O)[nH]c1=O [AZT, zidouvding, reference compound] | 5000
COc1cc2cc[n+]3cc4c5c(ccc4c(C)c3c2cc1O)OCO5 [dehydroapocavidine] | 40
COc1cc2c(cc1OC)-c1c(C)c3ccc4c(c3c[n+]1CC2)OCO4 [dehydrocavidine] | >80
